Compound potency records, mixed from different reports. Data source: NIAID ChemDB in PubChem.

Shared fields: tests on isolated targets; species: Toxoplasma gondii; target: Dihydrofolate reductase; read-out: IC50

ICn is the concentration giving n% inhibition. Rows are shuffled and stem from different studies.

smiles	result
Nc1nc2[nH]c(CCc3ccc4ccccc4c3)cc2c(=O)[nH]1	33 µM
CC(Cc1coc2nc(N)nc(N)c12)c1ccc2ccccc2c1	11 µM
Nc1nc(N)c2cc(COC(=O)c3cccc(I)c3)ccc2n1	0.33 µM
C/C(=C/c1coc2nc(N)nc(N)c12)c1cc(Cl)ccc1Cl	14 µM
Nc1nc(N)c2cc(COC(=O)c3ccoc3)ccc2n1	0.25 µM
COc1ccc2c(c1)-c1cc3c(N)nc(N)nc3nc1CC2	0.091 µM
Nc1nc(N)c2c(n1)CC1CC(=O)CC2C1	34 µM
Cc1cc(C)cc(C(=O)OCc2ccc3nc(N)nc(N)c3c2)c1	0.13 µM
COc1ccc(/C(C)=C\c2coc3nc(N)nc(N)c23)c(OC)c1	11 µM
Nc1nc(N)c2cc(COC(=O)c3cccc4ccccc34)ccc2n1	0.1 µM
C/C(=C/c1coc2nc(N)nc(N)c12)c1ccc(Cl)c(Cl)c1	1.7 µM
COc1cc(C(C)Cc2c[nH]c3nc(N)nc(N)c23)cc(OC)c1OC	0.0414 µM
CC1(C)CN2CCC1c1nc(N)nc(N)c12	46 µM
Nc1nc(N)c2cc3ccc4ccccc4c3nc2n1	0.46 µM
C/C(=C\c1coc2nc(N)nc(N)c12)c1ccccc1	30 µM
COc1ccc(OC)c(C(C)Cc2c[nH]c3nc(N)nc(N)c23)c1	0.16 µM
Nc1nc(N)c2c(n1)-c1ccccc1C2	20 µM
Nc1nc(N)c2cc3c(nc2n1)CCc1ccccc1-3	0.16 µM
Nc1nc(N)c2cc(COC(=O)c3ccccc3-c3ccccc3)ccc2n1	0.17 µM
COc1ccc2cc(/C(C)=C\c3coc4nc(N)nc(N)c34)ccc2c1	0.3 µM
Nc1nc2[nH]c(CCc3ccccn3)cc2c(=O)[nH]1	>38 µM
COc1ccc(OC)c(/C(C)=C/c2coc3nc(N)nc(N)c23)c1	15 µM
Nc1nc2[nH]c(CCc3ccccc3)cc2c(=O)[nH]1	39 µM
COc1cccc(/C(C)=C\c2coc3nc(N)nc(N)c23)c1	10 µM
Nc1nc2[nH]c(CCc3ccccc3Cl)cc2c(=O)[nH]1	34 µM

Repeating the final 3 entries:

smiles	result
Nc1nc2[nH]c(CCc3ccccc3)cc2c(=O)[nH]1	39 µM
COc1cccc(/C(C)=C\c2coc3nc(N)nc(N)c23)c1	10 µM
Nc1nc2[nH]c(CCc3ccccc3Cl)cc2c(=O)[nH]1	34 µM